{"source": "patent US20190002429A1", "about": "“Derivatives of Xanthone Compounds” (Agency for Science, Technology and Research, priority 2011, published 2019)", "test_system": "Mycobacterium tuberculosis", "conditions": "HC50 / MIC100 against M. tuberculosis"}
{"compound": "COc1c(O)cc2oc3cc(OCC(=O)O)c(CC=C(C)C)c(O)c3c(=O)c2c1CC=C(C)C", "note": "[AM-071]", "values": [{"measurement": "Selectivity index", "result": 0.28}]}
